Results as given in article PMC12431669, “Divergent resistance pathways amongst SARS-CoV-2 PLpro inhibitors highlight the need for scaffold diversity” (2025).

Experiments:
SARS-CoV-2 = settings: read-out: efficacy in cell-based assays measuring viral replication; literature value; cited from earlier work
SARS-CoV-2 PLpro = SARS-CoV-2 PLpro (Severe acute respiratory syndrome coronavirus 2, UniProt P0DTD1); assay: Cellular FRET biosensor PLpro inhibitor assay

In the case of `CCO/N=C(/c1ccc2cc(OC)ccc2c1)[C@@H]1CCCN([C@H]2CC[C@@H](O)CC2)C1`, the EC50 (SARS-CoV-2) is given as 298 nM, the EC50 (SARS-CoV-2 PLpro; HEK293T PLpro-biosensor cells, 8-point titration, overnight, average of two biological replicates) is given as 100 nM and the EC95 concentration (SARS-CoV-2 PLpro; concentration used for DMS treatment) is given as 3000 nM.
